From PubChem BioAssay AID1224853 (National Center for Advancing Translational Sciences (NCATS), 2016)
The entries are a selection whose mix differs from that of the whole data set. Results filed as inconclusive are left out. A call without a number means that no potency is given here. Active and inactive are the calls of the source. Calls follow the shape of the dose curve; as a rule, active = well fitted inhibition curve with a large enough effect; inconclusive = small, poorly fitted or top-dose-only effect; inactive = no such curve, though single readings can be large or run the other way.

Test: Confirmation assay for measurement of the activity of small molecule inhibitors on Zika virus induced Caspase-3 activity in human astrocytoma cells
Text: National Center for Advancing Translational Sciences [NCATS] Johns Hopkins University School of Medicine Florida State University Assay Overview: Increase in the Caspase-3 activity indicates an activation of apoptosis cell death pathway caused by Zika virus infection in certain types of neuronal cells including human neural progenitor cells (hNPCs), astrocytes, and astrocytoma cell line (SNB-19). This cell-based caspase-3 activity assay measures the increased caspase-3 activity in the astrocytoma cell line (SNB-19) after a 6-hour Zika virus infection with a luminescence readout. A decrease in the luminescence signal in this assay by small molecule treatment indicates an inhibitory effect of that small molecule on the Zika virus induced caspase-3 activity that may correlate with its effect on reduction of Zika virus caused cell death.
Assay Protocol Summary: The medium for SNB-19 cells is composed of RPMI 1640 (ATCC, Cat.# 30-2001), 10% fetal bovine serum (FBS) (GE healthcare Life Sciences, Cat.# SH30071.03), and 1% Pen/Strep (Gibco, Cat.# 15140-122). […] The luminescence intensity of the assay plates was measured using a ViewLux plate reader (PerkinElmer). […] The percentage inhibitions of the increased Caspase-3 activity by small molecule inhibitors were then calculated.

| SMILES | Potency |
| --- | --- |
| CCOP(=O)(CC)Oc1ccc([N+](=O)[O-])cc1 (configuration not stated) | inactive |
| C/C1=C2N=C(/C=C3N=C(/C(C)=C4\[N-][C@@](C)([C@@H]5N=C1[C@](C)(CCC(=O)NC[C@@H](C)OP(=O)([O-])O[C@H]1[C@@H](O)[C@@H](n6cnc7cc(C)c(C)cc76)O[C@@H]1CO)[C@H]5CC(N)=O)[C@@](C)(CC(N)=O)[C@@H]4CCC(N)=O)[C@@](C)(CC(N)=O)[C@@H]\3CCC(N)=O)C(C)(C)[C@@H]/2CCC(N)=O.[C-]#N.[Co+3] | active: 8.69 µM |
